Consider 23 compounds from patent publication US20200339511A1, “Substituted indoline derivatives as dengue viral replication inhibitors” (priority 2016, published 2020).

Bounds are passed on as bounds.

This data set deals with DENV-2 16681 strain. Nature of the data set: DENV-2 antiviral assay (eGFP-labeled virus in Vero cells). It counts as cell-based, Dengue virus. Conditions: SI=CC50/EC50, DENV-2 antiviral assay. The procedure:
The antiviral activity of all the compounds of the invention was tested the against DENV-2 16681 strain which was labeled with enhanced green fluorescent protein (eGPF). The culture medium consists of minimal essential medium supplemented with 2% of heat-inactivated fetal calf serum, 0.04% gentamycin (50 mg/mL) and 2 mM of L-glutamine. Vero cells, obtained from ECACC, were suspended in culture medium and 25 μL was added to 384-well plates (2500 cells/well), which already contain the antiviral compounds. Typically, these plates contain a 5-fold serial dilution of 9 dilution steps of the test compound at 200 times the final concentration in 100% DMSO (200 nL). […] Finally, each plate contains wells which are assigned as virus controls (containing cells and virus in the absence of compound), cell controls (containing cells in the absence of virus and compound) and medium controls (containing medium in the absence of cells, virus and compounds). To the wells assigned as medium control, 25 μL of culture medium was added instead of Vero cells. Once the cells were added to the plates, the plates were incubated for 30 minutes at room temperature to allow the cells to distribute evenly within the wells. Next, the plates were incubated in a fully humidified incubator (37° C., 5% CO2) until the next day. Then, DENV-2 strain 16681, labeled with eGFP, was added at a multiplicity of infection (MOI) of 0.5. Therefore, 15 μL of virus suspension was added to all the wells containing test compound and to the wells assigned as virus control. In parallel, 15 μL of culture medium was added to the medium and cell controls. Next, the plates were incubated for 3 days in a fully humidified incubator (37° C., 5% CO2). At the day of the read out, the eGFP fluorescence was measured using an automated fluorescence microscope at 488 nm (blue laser). Using an in-house LIMS system, inhibition dose response curves for each compound were calculated and the half maximal effective concentration (EC50) was determined. Therefore, the percent inhibition (I) for every test concentration is calculated using the following formula: I=100*(ST-SCC)/(SVC-SCC), ST, SCC and SVC are the amount of eGFP signal in the test compound, cell control and virus control wells, respectively. The EC50 represents the concentration of a compound at which the virus replication is inhibited with 50%, as measured by a 50% reduction of the eGFP fluorescent intensity compared to the virus control. The EC50 is calculated using linear interpolation (Table 1).

As for `COc1cc(NC(C(=O)N2CCc3cc(OC)c(C(F)(F)F)cc32)c2ccc(Cl)cc2OC)cc(OCCO)c1` (racemic) [Compound 11, 2-(4-chloro-2-methoxyphenyl)-2-((3-(2-hydroxyethoxy)-5-methoxyphenyl)amino)-1-(5-methoxy-6-(trifluoromethyl)indolin-1-yl)ethanone], the SI is listed as 8650. For the compound `COc1cc(NC(C(=O)N2CCc3cc(F)c(C(F)(F)F)cc32)c2ccc(Cl)cc2)cc(OCCO)c1` (single isomer, unassigned) [Compound 12B, 2-(4-chlorophenyl)-1-(5-fluoro-6-(trifluoromethyl)indolin-1-yl)-2-((3-(2-hydroxyethoxy)-5-methoxyphenyl)amino)ethanone], the SI worked out at 27.

The compound `COc1cc(NC(C(=O)N2CCc3c(C)cc(C(F)(F)F)cc32)c2ccc(Cl)cc2)cc(OCCO)c1` (single isomer, unassigned) [Compound 10A, 2-(4-chlorophenyl)-2-((3-(2-hydroxyethoxy)-5-methoxy-phenyl)amino)-1-(4-methyl-6-(trifluoromethyl)indolin-1-yl)ethanone] came in with an SI of 8.4. The compound `COc1cc(NC(C(=O)N2CCc3ccc(C(F)(F)F)cc32)c2ccc(Cl)cc2OC)cc(OCCO)c1` (single isomer, unassigned) [Compound 1A, 2-(4-chloro-2-methoxyphenyl)-2-((3-(2-hydroxyethoxy)-5-methoxyphenyl)amino)-1-(6-(trifluoromethyl)indolin-1-yl)ethanone] gave an SI of 50. In turn, `COc1cc(NC(C(=O)N2CCc3cc(OC)c(OC(F)(F)F)cc32)c2ccc(Cl)cc2)cc(OCCO)c1` (single isomer, unassigned) [Compound 13B, 2-(4-chlorophenyl)-2-((3-(2-hydroxyethoxy)-5-methoxyphenyl)amino)-1-(5-methoxy-6-(trifluoromethoxy)indolin-1-yl)ethanone] returned an SI of over 123. As for `COc1cc(NC(C(=O)N2CCc3ccc(C(F)(F)F)cc32)c2ccc(Cl)cc2)cc(OCCO)c1` (racemic) [Compound 4, 2-(4-chlorophenyl)-2-((3-(2-hydroxyethoxy)-5-methoxyphenyl)amino)-1-(6-(trifluoromethyl)indolin-1-yl)ethanone], the SI worked out at 1440. In the case of `COc1cc(NC(C(=O)N2CCc3cc(OC)c(C(F)(F)F)cc32)c2ccc(Cl)cc2)cc(OCCO)c1` (single isomer, unassigned) [Compound 7A, 2-(4-chlorophenyl)-2-((3-(2-hydroxyethoxy)-5-methoxyphenyl)amino)-1-(5-methoxy-6-(trifluoromethyl)indolin-1-yl)ethanone], the SI was 26. Consider `COc1cc(NC(C(=O)N2CCc3ccc(C(F)(F)F)cc32)c2ccc(Cl)cc2OC)cc(OCCO)c1` (racemic) [Compound 1, 2-(4-chloro-2-methoxyphenyl)-2-((3-(2-hydroxyethoxy)-5-methoxyphenyl)amino)-1-(6-(trifluoromethyl)indolin-1-yl)ethanone], for which the SI turned out to be 2070. As for `COc1cc(NC(C(=O)N2CCc3ccc(OC(F)(F)F)cc32)c2ccc(Cl)cc2)cc(OCCO)c1` (single isomer, unassigned) [Compound 3B, 2-(4-chlorophenyl)-2-((3-(2-hydroxyethoxy)-5-methoxyphenyl)amino)-1-(6-(trifluoromethoxy)indolin-1-yl)ethanone], the SI is listed as 19. In turn, `COc1cc(NC(C(=O)N2CCc3ccc(C(F)(F)F)cc32)c2ccc(Cl)cc2F)cc(OCCO)c1` (racemic) [Compound 2, 2-(4-chloro-2-fluorophenyl)-2-((3-(2-hydroxyethoxy)-5-methoxyphenyl)amino)-1-(6-(trifluoromethyl)indolin-1-yl)ethanone] displayed an SI of 1400. For `COc1cc(NC(C(=O)N2CCc3cc(OC)c(C(F)(F)F)cc32)c2ccc(Cl)cc2F)cc(OCCO)c1` (single isomer, unassigned) [Compound 8A, 2-(4-chloro-2-fluorophenyl)-2-((3-(2-hydroxyethoxy)-5-methoxyphenyl)amino)-1-(5-methoxy-6-(trifluoromethyl)indolin-1-yl)ethanone], the SI is given as over 81. The value for `COc1cc(NC(C(=O)N2CCc3ccc(OC(F)(F)F)cc32)c2ccc(Cl)cc2OC)cc(OCCO)c1` (racemic) [Compound 5, 2-(4-chloro-2-methoxyphenyl)-2-((3-(2-hydroxyethoxy)-5-methoxyphenyl)amino)-1-(6-(trifluoromethoxy)indolin-1-yl)ethanone] was 2040; that for `COc1cc(NC(C(=O)N2CCc3ccc(OC(F)(F)F)cc32)c2ccc(Cl)cc2)cc(OCCO)c1` (racemic) [Compound 3, 2-(4-chlorophenyl)-2-((3-(2-hydroxyethoxy)-5-methoxyphenyl)amino)-1-(6-(trifluoromethoxy)indolin-1-yl)ethanone] was 1760; that for `COc1cc(NC(C(=O)N2CCc3ccc(OC(F)(F)F)cc32)c2ccc(Cl)cc2OC)cc(OCCO)c1` (single isomer, unassigned) [Compound 5B, 2-(4-chloro-2-methoxyphenyl)-2-((3-(2-hydroxyethoxy)-5-methoxyphenyl)amino)-1-(6-(trifluoromethoxy)indolin-1-yl)ethanone] was 19.

Compound `COc1cc(NC(C(=O)N2CCc3cc(OC)c(C(F)(F)F)cc32)c2ccc(Cl)cc2OC)cc(OCCO)c1` (single isomer, unassigned) [Compound 11A, 2-(4-chloro-2-methoxyphenyl)-2-((3-(2-hydroxyethoxy)-5-methoxyphenyl)amino)-1-(5-methoxy-6-(trifluoromethyl)indolin-1-yl)ethanone] showed an SI of over 94. As to `COc1cc(NC(C(=O)N2CCc3c(C)cc(OC(F)(F)F)cc32)c2ccc(Cl)cc2)cc(OCCO)c1` (single isomer, unassigned) [Compound 9A, 2-(4-chlorophenyl)-2-((3-(2-hydroxyethoxy)-5-methoxy-phenyl)amino)-1-(4-methyl-6-(trifluoromethoxy)indolin-1-yl)ethanone], the SI is 12. On to `COc1cc(NC(C(=O)N2CCc3cc(OC)c(C(F)(F)F)cc32)c2ccc(Cl)cc2)cc(OCCO)c1` (racemic) [Compound 7, 2-(4-chlorophenyl)-2-((3-(2-hydroxyethoxy)-5-methoxyphenyl)amino)-1-(5-methoxy-6-(trifluoromethyl)indolin-1-yl)ethanone], for which the SI is reported as 4670. Compound `COc1cc(NC(C(=O)N2CCc3ccc(OC(F)(F)F)cc32)c2ccc(Cl)cc2F)cc(OCCO)c1` (single isomer, unassigned) [Compound 6A, 2-(4-chloro-2-fluorophenyl)-2-((3-(2-hydroxyethoxy)-5-methoxyphenyl)amino)-1-(6-(trifluoromethoxy)indolin-1-yl)ethanone] yielded an SI of 49. In the case of `COc1cc(NC(C(=O)N2CCc3cc(OC)c(C(F)(F)F)cc32)c2ccc(Cl)cc2F)cc(OCCO)c1` (racemic) [Compound 8, 2-(4-chloro-2-fluorophenyl)-2-((3-(2-hydroxyethoxy)-5-methoxyphenyl)amino)-1-(5-methoxy-6-(trifluoromethyl)indolin-1-yl)ethanone], the SI was over 6100. Next, `COc1cc(NC(C(=O)N2CCc3ccc(C(F)(F)F)cc32)c2ccc(Cl)cc2F)cc(OCCO)c1` (single isomer, unassigned) [Compound 2A, 2-(4-chloro-2-fluorophenyl)-2-((3-(2-hydroxyethoxy)-5-methoxyphenyl)amino)-1-(6-(trifluoromethyl)indolin-1-yl)ethanone]: 46; `COc1cc(NC(C(=O)N2CCc3ccc(OC(F)(F)F)cc32)c2ccc(Cl)cc2F)cc(OCCO)c1` (racemic) [Compound 6, 2-(4-chloro-2-fluorophenyl)-2-((3-(2-hydroxyethoxy)-5-methoxyphenyl)amino)-1-(6-(trifluoromethoxy)indolin-1-yl)ethanone]: 1940; `COc1cc(NC(C(=O)N2CCc3cc(F)c(C(F)(F)F)cc32)c2ccc(Cl)cc2)cc(OCCO)c1` (racemic) [Compound 12, 2-(4-chlorophenyl)-1-(5-fluoro-6-(trifluoromethyl)indolin-1-yl)-2-((3-(2-hydroxyethoxy)-5-methoxyphenyl)amino)ethanone]: 966. Next, `COc1cc(NC(C(=O)N2CCc3cc(OC)c(OC(F)(F)F)cc32)c2ccc(Cl)cc2)cc(OCCO)c1` (racemic) [Compound 13, 2-(4-chlorophenyl)-2-((3-(2-hydroxyethoxy)-5-methoxyphenyl)amino)-1-(5-methoxy-6-(trifluoromethoxy)indolin-1-yl)ethanone]: 2630.
